Measured values from several laboratories, pooled; numbers as filed in NIAID ChemDB.

Common to all: growth or infection tests; agent: Hepatitis C virus; cell line: Huh7; read-out: EC50

Conditions beyond the fields shown may differ between rows. ECn: concentration that inhibits the pathogen or its effect by n%. Blank or dashed fields: not listed here. Two numbers with a dash give a range or band.

| SMILES | strain or isolate | method | conditions | value |
|---|---|---|---|---|
| N/C(=N\OC(=O)N1CCOCC1)c1cccc(C(F)(F)F)c1 |  | replicon |  | 1.99 µM |
| C=C[C@@H]1C[C@]1(NC(=O)[C@@H]1C[C@@H](Oc2cc(-c3ccccc3)nc3cc(OC)ccc23)CN1C(=O)[C@@H](NC(=O)OCC1CC1)C(C)(C)C)C(=O)NS(=O)(=O)C1CC1 | 1b | replicon |  | <0.05 µM |
| CNC(=O)c1c(-c2ccc(F)cc2)oc2cc(N(C)S(C)(=O)=O)c(OCc3cccc(C#N)c3)cc12 |  | replicon |  | <1 µM |
| COc1c(C(C)(C)C)cc(-n2ccc(=O)[nH]c2=O)c2ncc(-c3ccc(NS(C)(=O)=O)cc3)cc12 | GT-1b Con1 | replicon | 40% human serum | 0.011 µM |
| CN(C)C(=O)CN1CCn2c(c(C3CCCCC3)c3ccc(C(=O)O)cc32)-c2ccccc21 |  | replicon | 10% FBS | 0.21 µM |
| CCCCN1N=C(N)c2cn(C3(C)O[C@H](CO)[C@@H](O)[C@H]3O)c3ncnc1c23 |  |  |  | 100 µM |
| Cn1c(C(=O)O)cc2cc(NC(=O)C3(NC(=O)c4ccc5c(C6CCCCC6)c6n(c5c4)CC(=O)Nc4ccccc4-6)CCCC3)ccc21 |  | replicon |  | 0.01–1 µM |
| CNC(=O)c1c(-c2ccc(F)cc2)oc2cc(-c3c(C)noc3C)c(OCCN3CCC(C#N)CC3)cc12 |  | replicon |  | <1 µM |
| CC[C@@H]1C[C@]1(NC(=O)[C@@H]1C[C@@H](Oc2cc(-c3ccccc3)nc3cc(OC)ccc23)CN1C(=O)[C@@H](NC(=O)CC1CC1)C(C)C)C(=O)NS(=O)(=O)C1CC1 | 1b | replicon |  | <0.05 µM |
| CC(C)CC[C@@]1(C)C(=O)C(C2=NS(=O)(=O)c3cc(NS(C)(=O)=O)ccc3N2)=C(O)c2ccccc21 | 1a | luciferase |  | 0.0068 µM |
| C=C[C@H]1C[C@@]1(NC(=O)[C@@H]1C[C@@H](Oc2cc(-c3ccccc3)nc3cc(OC)ccc23)CN1C(=O)[C@@H](NC(=O)OC(C)(C)C)C(C)(C)C)C(=O)NS(=O)(=O)C1(CC2CCC2)CC1 | 1b | replicon |  | <0.05 µM |
| O=C(O)c1ccc2c(C3CCCCC3)c3n(c2c1)CCN(CCN1CCCCC1)c1ccccc1-3 |  | replicon | 10% FBS | 0.035 µM |
| O=C(O)c1ccc2c(C3CCCCC3)c3n(c2c1)CC/C=C\Nc1ccccc1-3 |  | replicon |  | 1–10 µM |
| CSc1cnccc1Nc1nc(-c2cc(Cl)ccc2F)nc2ncccc12 |  | replicon |  | 0.49 µM |
| C=CCC1(S(=O)(=O)NC(=O)[C@]2(NC(=O)[C@@H]3C[C@@H](Oc4ccnc5cc(Cl)ccc45)CN3C(=O)[C@@H](NC(=O)OC3CCCC3)C(C)(C)C)C[C@@H]2C=C)CC1 | 1b | replicon |  | 0.05–0.5 µM |
| CNC(=O)c1c(-c2ccc(F)cc2)oc2cc(Br)c(OC)cc12 |  | replicon |  | <1 µM |
| CC(=O)Nc1ccc(-c2ccc3nc(N)nc(N4CCCCC4)c3c2)cc1 |  |  |  | 1–10 µM |
| Cc1ccc(Nc2nc3ccc(C)cc3s2)c(C)c1 | Con1 | PCR |  | >200 µM |
| CCOc1cc2c(C(=O)NC)c(-c3ccc(F)cc3)oc2cc1N(C)S(C)(=O)=O |  | replicon |  | <1 µM |
| Fc1ccc(-c2ccc3ncnc(N4CCOCC4)c3c2)cc1 |  |  |  | 1–10 µM |
| C=C[C@H]1C[C@@]1(NC(=O)[C@@H]1C[C@@H](Oc2cc(-c3ccccc3)nc3cc(OC)ccc23)CN1C(=O)[C@@H](NC(=O)OC(C)(C)C)C(C)(C)C)C(=O)NS(=O)(=O)C1(Cc2cccnc2)CC1 | 1b | replicon |  | 0.05–0.5 µM |
| N/C(=N\OC(=O)N1CCOCC1)c1ccc(I)cc1 |  | replicon |  | 1.6 µM |
| Cc1ccc2nc(Nc3ccc([N+](=O)[O-])cc3)sc2c1 | Con1 | PCR |  | 25 µM |
| C=C[C@H]1C[C@@]1(NC(=O)[C@@H]1C[C@@H](Oc2cc(-c3ccccc3)nc3cc(OC)ccc23)CN1C(=O)[C@@H](NC(=O)OC(C)(C)C)C(C)(C)C)C(=O)NS(=O)(=O)C1(Cl)CC1 | 1b | replicon |  | <0.05 µM |
| C=CC1CC1(NC(=O)OC(C)(C)C)C(=O)N1C[C@H](Oc2cc(-c3ccccc3)nc3cc(OC)ccc23)C[C@H]1C(=O)N[C@]1(C(=O)NS(=O)(=O)C2CC2)C[C@H]1C=C | 1b | replicon |  | <0.5 µM |
| C=CC1CC1(NC(=O)[C@@H]1C[C@@H](Oc2cc(-c3ccccc3)nc3cc(OC)ccc23)CN1C(=O)[C@@H](NC(=O)OC(C)(C)C)C(C)(C)C)C(=O)NS(=O)(=O)C1(COC)CC1 | 1b | replicon |  | <0.05 µM |
| CNC(=O)c1c(-c2ccc(F)cc2)oc2cc(OCc3ccccc3)c(OCc3ccccc3)cc12 |  | replicon |  | <10 µM |
| COc1cccc(Nc2nc3ccc(C)cc3s2)c1 | Con1 | PCR |  | >200 µM |
| O=C(c1ccccc1)N1CCC2(CCCN(c3ncc(Br)c(-c4ccc(Cl)cc4)n3)C2)CC1 | H77 | luciferase | genotype 1a | 2.222 µM |
| CCOC(=O)/C=C/c1ccc(NC(=O)C2(NC(=O)c3ccc4c(C5CCCCC5)c5n(c4c3)CC(C(=O)O)Nc3ccccc3-5)CCCC2)cc1 |  | replicon |  | 0.01–1 µM |
| C=C[C@H]1C[C@@]1(NC(=O)[C@@H]1C[C@@H](Oc2cc(-c3ccccc3)nc3cc(OC)ccc23)CN1C(=O)[C@@H](NC(=O)OC(C)(C)C)C(C)(C)C)C(=O)NS(=O)(=O)C1(Cc2ncoc2-c2ccccc2)CC1 | 1b | replicon |  | <0.05 µM |
| COc1ccc(/C(N)=N/OC(=O)N2CCOCC2)cc1 |  | replicon |  | 1.77 µM |
| CC1=C(C(=O)N2CCOCC2)Cn2c(c(C3CCCCC3)c3ccc(C(=O)O)cc32)-c2ccccc21 |  | replicon |  | 0.01–1 µM |
| CCC[C@H](NC(=O)[C@@H]1[C@H]2CCC[C@H]2CN1C(=O)[C@@H](NC(=O)[C@@H](NC(=O)c1cnccn1)C1CCCCC1)C(C)(C)C)C(=O)C(=O)NC1CC1 | WILD TYPE | replicon |  | 0.354 µM |
| COc1ccc(-c2ccc3nc(N)nc(N4CCOCC4)c3c2)cc1OC |  |  |  | <0.3 µM |
| C[C@@]1(O)[C@H](O)[C@@H](CO)O[C@H]1N1C=CC(N)NC1=O | 1a | replicon |  | 2.5 µM |
| CC1(n2cc3c4c(ncnc42)N(CCO)N=C3N)O[C@H](CO)[C@@H](O)[C@H]1O |  |  |  | 200 µM |
| COc1cnccc1Nc1nc(-c2cc(Cl)ccc2F)nc2ncccc12 |  | replicon |  | 0.56 µM |
| CNC(=O)c1c(-c2ccc(F)cc2)oc2cc(NS(C)(=O)=O)c(-c3ccco3)cc12 |  | replicon |  | <1 µM |
| Cc1cc(-c2nnc(N[C@@H]3CCC[C@H](O)C3)o2)nc2c(C(C)(C)C)cc(NCC(F)(F)F)cc12 | 2a - JFH | luciferase |  | 0.003 µM |
| CNC(=O)c1c(-c2ccc(F)cc2)oc2cc(NS(C)(=O)=O)c(C3CCCO3)cc12 |  | replicon |  | <1 µM |
| C=C[C@@H]1C[C@]1(NC(=O)[C@@H]1C[C@@H](Oc2cc(-c3ccccc3)nc3cc(OC)ccc23)CN1C(=O)[C@@H](NC(=O)OC(C)(C)C)C(C)(C)C)C(=O)NS(=O)(=O)c1cccc([N+](=O)[O-])c1 | 1b | replicon |  | <50 µM |
| Clc1cccc(-c2nc(Nc3ccncc3)c3cccnc3n2)c1 |  | replicon |  | 0.57 µM |
| O=C(c1ccccc1)N1CCC2(CCCN(c3ncc(-c4ccccc4)c(-c4ccc(Cl)cc4)n3)C2)CC1 | H77 | luciferase | genotype 1a | 0.803 µM |
| Nc1ccc2c(Nc3ccncc3)nc(-c3cccc(Cl)c3)nc2n1 |  | replicon |  | 1.8 µM |
| C=C[C@H]1C[C@@]1(NC(=O)[C@@H]1C[C@@H](Oc2cc(-c3ccccc3)nc3cc(OC)ccc23)CN1C(=O)[C@@H](NC(=O)OC(C)(C)C)C(C)(C)C)C(=O)NS(=O)(=O)C1(C(=C)C)CC1 | 1b | replicon |  | <0.05 µM |
| Cc1cc(-c2nnc(NC3CC(O)(C(F)F)C3)o2)nc2c(C(C)(C)C)cc(NCC(F)(F)F)cc12 | GT 2a JFH |  |  | 0.025 µM |
| CNC(=O)c1c(-c2ccc(F)cc2)oc2cc(-c3c(C)noc3C)c(OCc3nccs3)cc12 |  | replicon |  | <1 µM |
| COC(=O)c1ccc2c(C3CCCCC3)c3n(c2c1)CC(C(=O)N1CCOCC1)Cc1ccncc1-3 |  | replicon |  | 0.01–1 µM |
| CCOC(=O)N[C@H](C(=O)N1C[C@H](Oc2cc(-c3ccccc3)nc3cc(OC)ccc23)C[C@H]1C(=O)N[C@]1(C(=O)NS(=O)(=O)C2CC2)C[C@H]1CC)C(C)C | 1b | replicon |  | <0.5 µM |
| Cc1ccc2nc(Nc3cc(O)cc(C(=O)O)c3)sc2c1 | Con1 | PCR |  | >200 µM |
| CS(=O)(=O)Nc1ccc2c(c1)S(=O)(=O)N=C(c1c(O)c3ccccc3n(NC3CCC3)c1=O)N2 | 1b | replicon |  | 0.0007 µM |
| NC(=O)C1(NC(=O)c2ccc3c(C4CCCCC4)c4n(c3c2)CC(=O)Nc2ccccc2-4)CCCC1 |  | replicon |  | 0.01–1 µM |
| COCCOC(=O)NC(=S)Nc1ccc(Oc2ccc(Cl)cc2)c(Cl)c1 |  | replicon |  | 0.94 µM |
| C=C[C@H]1C[C@@]1(NC(=O)[C@@H]1C[C@@H](Oc2cc(-c3ccccc3)nc3cc(OC)ccc23)CN1C(=O)[C@@H](NC(=O)OC(C)(C)C)C(C)(C)C)C(=O)NS(=O)(=O)C1(Cc2ccccc2F)CC1 | 1b | replicon |  | 0.05–0.5 µM |
| C=C[C@@H]1C[C@]1(NC(=O)[C@@H]1C[C@@H](Oc2cc(-c3ccccc3)nc3cc(OC)ccc23)CN1C(=O)[C@@H](NC(=O)OC(C)(C)C)C(C)(C)C)C(=O)NS(=O)(=O)CCCC | 1b | replicon |  | <0.5 µM |
| CNC(=O)c1c(-c2ccc(F)cc2)oc2cc(CO)c(OC(C)C)cc12 |  | replicon |  | <10 µM |
| COc1c(-c2ccc3cc(NS(C)(=O)=O)ccc3c2)cc(-n2ccc(=O)[nH]c2=O)cc1C(C)(C)C | genotype 1a H77 | luciferase |  | 0.00096 µM |
| C=CC1C[C@@]1(NC(=O)[C@@H]1C[C@@H](Oc2cc(-c3ccccc3)nc3cc(OC)ccc23)CN1C(=O)[C@@H](NC(=O)CCOC)C(C)(C)C)C(=O)NS(=O)(=O)C1(Cc2ccccc2)CC1 | 1b | replicon |  | 0.05–0.5 µM |
| Nc1nc(Nc2ccccc2)c2cc(-c3ccc(F)cc3)ccc2n1 |  |  |  | 0.3–1 µM |
| Cc1ccc(/C(N)=N/OC(=O)N2CCOCC2)cc1 |  | replicon |  | 1.55 µM |
| C=CC1CC1(NC(=O)[C@@H]1C[C@@H](Oc2cc(-c3ccccc3)nc3cc(OC)ccc23)CN1C(=O)[C@@H](NC(=O)OC(C)(C)C)C(C)(C)C)C(=O)NS(=O)(=O)c1ccc([N+](=O)[O-])cc1 | 1b | replicon |  | <0.5 µM |
| O=C(O)/C=C/c1ccc(NC(=O)C2(NC(=O)c3ccc4c(C5CCCCC5)c5n(c4c3)CCNc3ccccc3-5)CCCC2)cc1 |  | replicon |  | 0.01–1 µM |
| CC(=O)Nc1ccc(-c2ccc3nc(N)nc(N4CCN(C(C)=O)CC4)c3c2)cc1 |  |  |  | 1–10 µM |
| COCCNc1ccc2c(Nc3ccncc3F)nc(-c3cc(Cl)ccc3F)nc2n1 |  | replicon |  | 3.4 µM |

Again, the opening 6 rows:

{"SMILES": "N/C(=N\\OC(=O)N1CCOCC1)c1cccc(C(F)(F)F)c1", "method": "replicon", "value": "1.99 µM"}
{"SMILES": "C=C[C@@H]1C[C@]1(NC(=O)[C@@H]1C[C@@H](Oc2cc(-c3ccccc3)nc3cc(OC)ccc23)CN1C(=O)[C@@H](NC(=O)OCC1CC1)C(C)(C)C)C(=O)NS(=O)(=O)C1CC1", "strain or isolate": "1b", "method": "replicon", "value": "<0.05 µM"}
{"SMILES": "CNC(=O)c1c(-c2ccc(F)cc2)oc2cc(N(C)S(C)(=O)=O)c(OCc3cccc(C#N)c3)cc12", "method": "replicon", "value": "<1 µM"}
{"SMILES": "COc1c(C(C)(C)C)cc(-n2ccc(=O)[nH]c2=O)c2ncc(-c3ccc(NS(C)(=O)=O)cc3)cc12", "strain or isolate": "GT-1b Con1", "method": "replicon", "conditions": "40% human serum", "value": "0.011 µM"}
{"SMILES": "CN(C)C(=O)CN1CCn2c(c(C3CCCCC3)c3ccc(C(=O)O)cc32)-c2ccccc21", "method": "replicon", "conditions": "10% FBS", "value": "0.21 µM"}
{"SMILES": "CCCCN1N=C(N)c2cn(C3(C)O[C@H](CO)[C@@H](O)[C@H]3O)c3ncnc1c23", "value": "100 µM"}